# Measurements reported in PubChem BioAssay AID1259414 (Drosophila RNAi Screening Center, 2018)
# Assay: 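Genome-wide screen for host control of endosymbiont load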 (primary screen)
# System: Drosophila JW18 cells infected with Wolbachia
# Reagent: long dsRNA against Drosophila genes, 0.25 µg dsRNA per well of a 384-well plate
# Timing: 5 days
# Treatment: cells persistently infected with Wolbachia before knock-down; no added drug
# Detection: 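Automated imaging of bacterial rRNA staining divided by host cell count, reported as plate-normalised robust z-score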
# Reading the numbers: Wolbachia per cell robust z: higher = more Wolbachia per host cell than the plate typical
# Active means: 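Active if absolute robust z reaches 1.5 in two or more of three replicates, leaving out multi- or no-target dsRNAs, genes unexpressed in JW18 and A1 wells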
# In all, the deposit lists about 24,000 reagents; shown is an unselected part of those with a known target gene and a result. Over the whole deposit, about 1,210 (5%) got an active call. 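Inactive calls also include excluded dsRNAs with several or no targets, genes unexpressed in JW18, and well A1, regardless of score.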 The numbers tell different reagents against one gene apart.
Gene,reagent no.,"Wolbachia per cell robust z, rep 1","Wolbachia per cell robust z, rep 2","Wolbachia per cell robust z, rep 3",outcome
brk (brinker),1,0.148,-4.42,-3.18,active
brk (brinker),2,0.375,-0.633,0.639,inactive
CG2865,1,0.531,0.386,0.412,inactive
CG2865,2,0.0474,-0.321,-0.114,inactive
CG2865,3,-0.814,0.0549,-1.49,inactive
CG34040,1,-0.684,-1.42,0.872,inactive
CG32536,1,-1.55,0.164,-1.68,active
ND-B8 (NADH dehydrogenase (ubiquinone) B8 subunit),1,0.0859,-6.33,0.327,inactive
CG4362,1,0.366,-0.431,1.31,inactive
CG13428,1,1.61,0.727,0.616,inactive
Nmdmc (NAD-dependent methylenetetrahydrofolate dehydrogenase),1,-2.47,0.822,0.3,inactive
Nmdmc (NAD-dependent methylenetetrahydrofolate dehydrogenase),2,-0.476,0.461,-0.837,inactive
CG11406,1,-10,-0.265,0.437,inactive
CG11406,2,1.34,0.412,-4.67,inactive
Ccp84Af,1,0.649,-1.06,-1.49,inactive
Ccp84Af,2,0.37,-0.543,-1.06,inactive
CG30062,1,0.218,-0.897,0.254,inactive
Kr-h2 (Kruppel homolog 2),1,-0.255,-0.512,-0.44,inactive

8 entries from above, arranged by “Wolbachia per cell robust z, rep 2”, low to high.
Gene,reagent no.,"Wolbachia per cell robust z, rep 1","Wolbachia per cell robust z, rep 2","Wolbachia per cell robust z, rep 3",outcome
ND-B8 (NADH dehydrogenase (ubiquinone) B8 subunit),1,0.0859,-6.33,0.327,inactive
CG34040,1,-0.684,-1.42,0.872,inactive
brk (brinker),2,0.375,-0.633,0.639,inactive
CG4362,1,0.366,-0.431,1.31,inactive
CG2865,2,0.0474,-0.321,-0.114,inactive
CG2865,3,-0.814,0.0549,-1.49,inactive
CG32536,1,-1.55,0.164,-1.68,active
CG2865,1,0.531,0.386,0.412,inactive

More records follow:
Gene,reagent no.,"Wolbachia per cell robust z, rep 1","Wolbachia per cell robust z, rep 2","Wolbachia per cell robust z, rep 3",outcome
PIP5K59B (Phosphatidylinositol 4-phosphate 5-kinase 59B),1,-6.7,-0.707,-5.53,inactive
PIP5K59B (Phosphatidylinositol 4-phosphate 5-kinase 59B),2,-4.02,0.751,-0.386,inactive
CG18518,1,1.16,0.0618,-1.06,inactive
CG6149,1,-0.53,0.676,1.14,inactive
pasi2 (pasiflora 2),1,-2.67,-0.186,1.11,inactive
CG4849,1,1.13,2.09,2.19,active
CG4849,2,0.601,0.619,0.328,inactive
Pph13 (PvuII-PstI homology 13),1,-0.0934,0.0506,0.37,inactive
Pph13 (PvuII-PstI homology 13),2,0.37,-0.155,1.54,inactive
Cyp4d20 (Cytochrome P450 4d20),1,-5.02,-4.6,-3.46,inactive
Cyp4d20 (Cytochrome P450 4d20),2,0.632,0.271,0.348,inactive
CG34281,1,0.449,0.49,1.02,inactive
CG34281,2,0.551,1.13,1.07,inactive
lncRNA:CR31386 (long non-coding RNA:CR31386),1,1.04,0.846,0.857,inactive
lncRNA:CR31386 (long non-coding RNA:CR31386),2,-0.436,-0.922,-0.663,inactive
CG11498,1,0.682,-0.287,-1.83,inactive
RhoGAP68F (Rho GTPase activating protein at 68F),1,0.43,-0.139,-4.49,inactive
PGRP-SC1a (Peptidoglycan recognition protein SC1a),1,-0.329,-0.275,0.0577,inactive
Gld (Glucose dehydrogenase),1,0.492,1.31,0.321,inactive
CG5180,1,0.197,0.538,0.057,inactive
hep (hemipterous),1,0.0144,0.328,1.31,inactive
hep (hemipterous),2,-0.878,0.271,0.629,inactive
hep (hemipterous),3,0.435,-0.881,-0.0984,inactive
Tgi (Tondu-domain-containing Growth Inhibitor),1,0.916,-0.956,1.05,inactive
Tgi (Tondu-domain-containing Growth Inhibitor),2,1.03,2.01,0.116,inactive
Tgi (Tondu-domain-containing Growth Inhibitor),3,-0.568,-2.1,-1.02,inactive
UQCR-14L (Ubiquinol-cytochrome c reductase 14 kDa subunit-like),1,0.955,0.402,0.496,inactive
UQCR-14L (Ubiquinol-cytochrome c reductase 14 kDa subunit-like),2,-3.72,0.199,0.139,inactive
UQCR-14L (Ubiquinol-cytochrome c reductase 14 kDa subunit-like),3,-1,-0.63,-1.79,inactive
